Results published in patent EP1222194B1, “7-ACYLAMINO-3-HETEROARYLTHIO-3-CEPHEM CARBOXYLIC ACID ANTIBIOTICS AND PRODRUGS THEREOF” (priority 1999, dated 2001).

test system: S. aureus ATCC29213; assay: Human serum binding effect (MIC with and without human serum); assay type: cell-based, Staphylococcus aureus; settings: Ratio of MIC value determined with and without human serum added for S. aureus ATCC29213; human serum:MHB 1:1

Row | Compound | Human serum binding effect
1 | NCCSCc1ccncc1SC1=C(C(=O)O)N2C(=O)[C@@H](NC(=O)/C(=N\O)c3nsc(N)n3)[C@H]2SC1 [Cmpd 4, (7R)-7-[(Z)-2-(5-amino-1,2,4-thiadiazol-3-yl)-2-(hydroxyimino)acetamido]-3-[4-(2-aminoethylthiomethyl)pyrid-3-ylthio]-3-cephem-4-carboxylic acid] | 4
2 | NCCSCc1ncccc1SC1=C(C(=O)O)N2C(=O)[C@@H](NC(=O)/C(=N\O)c3nsc(N)n3)[C@H]2SC1 [Cmpd 2, (7R)-7-[(Z)-2-(5-amino-1,2,4-thiadiazol-3-yl)-2-(hydroxyimino)acetamido]-3-[2-(2-aminoethylthiomethyl)pyrid-3-ylthio]-3-cephem-4-carboxylic acid] | 2
3 | NCCSCc1ncccc1SC1=C(C(=O)O)N2C(=O)[C@@H](NC(=O)/C(=N\O)c3nc(N)sc3Cl)[C@H]2SC1 [Cmpd 1, (7R)-7-[(Z)-2-(2-amino-5-chlorothiazol-4-yl)-2-(hydroxyimino)acetamido]-3-[2-(2-aminoethylthiomethyl)pyrid-3-ylthio]-3-cephem-4-carboxylic acid] | 2
4 | N=C(N)NCCSCc1ncccc1SC1=C(C(=O)O)N2C(=O)[C@@H](NC(=O)/C(=N\O)c3nsc(N)n3)[C@H]2SC1 [Cmpd 2-R, (7R)-7-[(Z)-2-(5-amino-1,2,4-thiadiazol-3-yl)-2-(hydroxyimino)acetamido]-3-[2-(2-guanidinoethylthiomethyl)pyrid-3-ylthio]-3-cephem-4-carboxylic acid] | 2
5 | NCCSCc1ccncc1SC1=C(C(=O)O)N2C(=O)[C@@H](NC(=O)/C(=N\O)c3nc(N)sc3Cl)[C@H]2SC1 [Cmpd 3, (7R)-7-[(Z)-2-(2-amino-5-chlorothiazol-4-yl)-2-(hydroxyimino)acetamido]-3-[4-(2-aminoethylthiomethyl)pyrid-3-ylthio]-3-cephem-4-carboxylic acid] | 2
6 | N=C(N)NCCSCc1ncccc1SC1=C(C(=O)O)N2C(=O)[C@@H](NC(=O)/C(=N\O)c3nc(N)sc3Cl)[C@H]2SC1 [Cmpd 2-S, (7R)-7-[(Z)-2-(2-amino-5-chlorothiazol-4-yl)-2-(hydroxyimino)acetamido]-3-[2-(2-guanidinoethylthiomethyl)pyrid-3-ylthio]-3-cephem-4-carboxylic acid] | 2
